Anti-infective test results gathered from many reports (values: NIAID ChemDB through PubChem).

Common to all: host cell toxicity; cells: MT-4; measure: CC50

Blank or dashed fields: not listed here.

COc1cccc(N2C(=O)CSC2c2c(F)cccc2Cl)c1 ; result: 56.54 µM
O=C1Nc2cc(Cl)ccc2S(=O)(=O)n2cccc21 ; result: >300 µM
CCc1cccc(N2C(=O)CSC2c2c(Cl)cccc2Cl)c1 ; result: 28.95 µM
Cc1c(Cc2c(F)cccc2F)nc(SC/C=C/c2ccc([N+](=O)[O-])cc2)[nH]c1=O ; read by: MTT ; result: 11.65 µM
S=C(NCCc1ccccc1)Nc1ncccc1Br ; result: 297 µM
C=C(C)CC[C@H]1CN(c2ccn(N3CCOCC3)c2)C(=O)O1 ; result: >100 µM
CNc1cc2c(=O)c(C(=O)O)cn(C)c2cc1N1CCN(c2ccccn2)CC1 ; read by: MTT ; result: 20.5 µM
COc1cccc(N2C(=O)CSC2c2c(Cl)cccc2Cl)c1 ; result: 32.74 µM
CCOc1cccc(CCNC(=S)Nc2nccs2)c1 ; result: 91 µM
C=C(CC[C@](C)(O)[C@H]1C(=O)C[C@H]2[C@@H]3C(=O)C[C@H]4C[C@H](O)CC[C@]4(C)[C@H]3CC[C@@]21C)C(C)C ; read by: MTT ; result: >25 µM
O=C(NCCN1CCCC2=C[C@@H]3C[C@@H](CN4CCCC[C@H]34)[C@@H]21)c1ccc(OC(F)(F)F)cc1 ; read by: luminescence ; result: >25 µM
Nc1nc(=O)n([C@H]2CC[C@@H](CO)O2)cc1F ; result: 20 µM
CN(CCc1ccccc1)C(=S)Nc1nccs1 ; result: 29 µM
O=C(NCCCCCCN1CCCC2=C[C@@H]3C[C@@H](CN4CCCC[C@H]34)[C@@H]21)c1ccc(C(F)(F)F)cc1 ; read by: luminescence ; result: >20 µM
Nc1cc2c(=O)c(C(=O)O)cn(C3CC3)c2cc1N1CCN(c2ccc3ccccc3n2)CC1 ; read by: MTT ; result: 0.2 µM
CC(C)=CCN1C(=O)c2cccn2S(=O)(=O)c2ccc(Cl)cc21 ; result: >300 µM
O=C(NCCCCCCN1CCCC2=C[C@@H]3C[C@@H](CN4CCCC[C@H]34)[C@@H]21)c1c(F)cccc1F ; read by: luminescence ; result: >20 µM
CC(C)=CCN1C(=O)c2cccn2S(=O)(=O)c2cc(Cl)ccc21 ; result: >300 µM
CN(C)c1cc2c(=O)c(C(=O)O)cn(C)c2cc1N1CCN(c2ccccn2)CC1 ; read by: MTT ; result: 19.48 µM
CC(C)(C)[Si](OC[C@H]1OC(N2C(=O)NC(=O)/C2=C/c2ccccc2)C[C@@H]1N=[N+]=[N-])(c1ccccc1)c1ccccc1 ; result: ~100 µM
C/C=C\CN1C(=O)c2cccn2S(=O)(=O)c2ccc(Cl)cc21 ; result: 300 µM
O=C1CSC(c2c(F)cccc2Cl)N1c1cccc([N+](=O)[O-])c1 ; result: 32.03 µM
CCc1c(Cc2c(Cl)cccc2Cl)nc(SC/C=C/c2ccc(C#N)cc2)[nH]c1=O ; read by: MTT ; result: >34.82 µM
O=C(NCCCCN1CCCC2=C[C@@H]3C[C@@H](CN4CCCC[C@H]34)[C@@H]21)C(=O)c1ccc(C(F)(F)F)cc1 ; read by: luminescence ; result: >20 µM
C[C@H]1CC[C@@H](C(F)F)N2CN1C(=O)c1c(O)c(=O)c(C(=O)NCc3c(F)cc(F)cc3F)cn12 ; read by: luminescence ; result: 15.7 µM
Oc1cc(/C=C/c2cc(O)c(O)c(O)c2)cc(O)c1O ; read by: MTT ; result: 11.9 µM
O=C1CSC(c2c(F)cccc2F)N1c1cccc(Br)c1 ; result: 32.68 µM
Nc1cc2c(=O)c(C(=O)O)cn(N)c2cc1N1CCN(c2ccccn2)CC1 ; read by: MTT ; result: 36.46 µM
O=C1CSC(c2c(Cl)cccc2Cl)N1c1cc(Cl)cc(Cl)c1 ; result: 18.06 µM
C[C@@H]1C=CC(C)(C)N2CN1n1cc(C(=O)NCc3ccc(F)cc3F)c(=O)c(O)c1C2=O ; read by: luminescence ; result: 37.2 µM
CNc1cc2c(=O)c(C(=O)O)cn(C)c2cc1N1CCN(c2cccc(C(F)(F)F)c2)CC1 ; read by: MTT ; result: 13.31 µM
CCc1c(C(C)c2c(F)cccc2F)nc(SC/C=C/c2ccc([N+](=O)[O-])cc2)[nH]c1=O ; read by: MTT ; result: 575 µM
O=C(NCCCCCCN1CCCC2=C[C@@H]3C[C@@H](CN4CCCC[C@H]34)[C@@H]21)c1c(F)cc(Cl)cc1F ; read by: luminescence ; result: >20 µM
COc1cccc(N2CCN(c3cc4c(cc3N)c(=O)c(C(=O)O)cn4C3CC3)CC2)c1 ; read by: MTT ; result: 4.21 µM
O=C1CSC(c2c(F)cccc2F)N1c1ccccc1 ; result: 38.1 µM
CN1C=C(C(=O)O)Cc2ccc(N3CCN(c4nc5ccccc5s4)CC3)nc21 ; read by: MTT ; result: 26.33 µM
Cc1cc(C)cc(S(=O)(=O)c2c(C(=O)NCC(=O)NN)[nH]c3ccc(Cl)cc23)c1 ; read by: MTT ; result: ≥200 µM
CC(CNC(=S)Nc1nccs1)c1ccccc1 ; result: 87 µM
C=C(CC[C@](C)(O)[C@H]1C(=O)C[C@H]2[C@@H]3C(=O)C=C4[C@@H](O)[C@@H](O)CC[C@]4(C)[C@H]3CC[C@@]21C)C(C)C ; read by: MTT ; result: 18.55 µM
Nc1cc2c(=O)c(C(=O)O)cn(C3CC3)c2nc1N1CCN(c2ccccn2)CC1 ; read by: MTT ; result: 10 µM
C=C(CC[C@](C)(O)[C@H]1C(=O)C[C@H]2[C@@H]3[C@H](O)C[C@H]4CC(=O)CC[C@]4(C)[C@H]3CC[C@@]21C)C(C)C ; read by: MTT ; result: 11.9 µM
CCOC(=O)[C@H](C)NC(O)(Oc1ccccc1)Oc1nc(N(C)C)nc(C(C)c2c(F)cccc2F)c1C ; read by: MTT ; result: 40 µM

The last 6 rows once more:

| smiles | read by | result |
|---|---|---|
| Cc1cc(C)cc(S(=O)(=O)c2c(C(=O)NCC(=O)NN)[nH]c3ccc(Cl)cc23)c1 | MTT | ≥200 µM |
| CC(CNC(=S)Nc1nccs1)c1ccccc1 |  | 87 µM |
| C=C(CC[C@](C)(O)[C@H]1C(=O)C[C@H]2[C@@H]3C(=O)C=C4[C@@H](O)[C@@H](O)CC[C@]4(C)[C@H]3CC[C@@]21C)C(C)C | MTT | 18.55 µM |
| Nc1cc2c(=O)c(C(=O)O)cn(C3CC3)c2nc1N1CCN(c2ccccn2)CC1 | MTT | 10 µM |
| C=C(CC[C@](C)(O)[C@H]1C(=O)C[C@H]2[C@@H]3[C@H](O)C[C@H]4CC(=O)CC[C@]4(C)[C@H]3CC[C@@]21C)C(C)C | MTT | 11.9 µM |
| CCOC(=O)[C@H](C)NC(O)(Oc1ccccc1)Oc1nc(N(C)C)nc(C(C)c2c(F)cccc2F)c1C | MTT | 40 µM |

CCn is the concentration with n% toxicity to the cells. Rows are shuffled and stem from different studies.